A mixed list of measured activities; the numbers were collected in NIAID ChemDB.

Common to all: tests in culture; species: Hepatitis C virus; read by: replicon; measure: EC50

ECn is the concentration giving n% inhibition of infection, replication or growth.

compound	cells	strain	result
C=C[C@@H]1C[C@]1(NC(=O)[C@@H]1C[C@@H](Oc2cc(-c3ccccc3)nc3cc(OC)ccc23)CN1C(=O)[C@@H](NC(=O)OC(C)(C)C)C1CCCC1)C(=O)NS(=O)(=O)C1CCC1	Huh7	1b	<0.5 µM
Cc1ccc(-c2cc(C[n+]3cc4[nH]c(-c5cccc(F)c5F)nc4cn3)on2)cc1	Huh-luc/neo-ET	Genotype 1A	0.106 µM
CC(C)(C)OC(=O)N1[C@H](CO)CC(F)(F)[C@H]1n1ccc(=O)[nH]c1=O	-	-	>10 µM
O=C(Nc1ccc(C2SC(=Nc3cccc(Oc4ccccc4)c3)N(Cc3ccco3)C2=O)cc1)[C@H]1CCCN1C(=O)OCc1ccccc1	Huh7	-	0.1–1 µM
COc1ccc(-c2cnc3nc(N)nc(N4CCN(CC5CCCO5)CC4)c3n2)cc1OC	Huh7	HCV replicon	0.3–1 µM
CNC(=O)c1c(-c2ccc(F)cc2)oc2cc(N(C)S(C)(=O)=O)c(OCc3ccncc3)cc12	Huh7	-	<1 µM
C=C1C[C@]1(NC(=O)[C@@H]1C[C@@H](Oc2cc(-c3ccccc3)nc3cc(OC)ccc23)CN1C(=O)[C@@H](NC(=O)OC(C)(C)C)C(C)(C)C)C(=O)NS(=O)(=O)c1cccc(C(F)(F)F)c1	Huh7	1b	<0.5 µM
Cc1cccc(Nc2ncnc3c2ncn3[C@@H]2O[C@H](CO)[C@@H](O)[C@@]2(C)O)c1	Huh7	-	>100 µM
CC(C)(C)OC(=O)N1[C@H](CO)CC(F)(F)[C@@H]1n1cnc2ncnc(N)c21	-	-	>10 µM
C=CC1CC1(NC(=O)[C@@H]1C[C@@H](OC(=O)n2c3ccccc3c3ccccc32)CN1C(=O)[C@@H](NC(=O)OC(C)(C)C)C(C)(C)C)C(=O)NS(=O)(=O)C1CC1	Huh7	1b	<0.1 µM
C=CC1CC1(NC(=O)[C@@H]1C[C@@H](Oc2cc(-c3ccccc3)nc3cc(OC)ccc23)CN1C(=O)[C@@H](NC(=O)OC(C)(C)C)C(C)(C)C)C(=O)NS(=O)(=O)c1ccc([N+](=O)[O-])cc1	Huh7	1b	<0.5 µM
CNC(=O)c1c(-c2ccc(F)cc2)oc2cc(-c3c(COC)noc3C)c(OC)cc12	Huh7	-	<1 µM
COc1cc(C(=O)N2[C@@H](c3nccs3)[C@@H](c3cnccn3)C[C@@]2(Cc2ccccc2)C(=O)O)ccc1C(C)(C)C	Huh7	Genotype 1A	10–100 µM
C=CC1CC1(NC(=O)[C@@H]1C[C@@H](OC(=O)Nc2ccccc2-c2ncn[nH]2)CN1C(=O)[C@@H](NC(=O)OC(C)(C)C)C(C)(C)C)C(=O)NS(=O)(=O)C1CC1	Huh7	1b	>10 µM
NC(=O)COc1ccc2c(c1)S(=O)(=O)N=C(c1c(O)c3cc(F)ccc3n(CCC3CC3)c1=O)N2	-	1a 45958	0.91 µM
Fc1ccc(-c2cc(Cn3ccc4nc(-c5ccccc5F)cc-4c3)on2)c(C(F)(F)F)c1	-	1b	<100 µM
CNC(=O)c1c(-c2ccncc2)oc2ccc(OC(C)C)cc12	Huh7	-	>30 µM
c1cc2c(C3CCCCC3)c[nH]c2cn1	-	1b	<100 µM
CNC(=O)c1c(-c2ccc(F)cc2)oc2cc(-c3c(C)noc3C)c(OCc3nnnn3C)cc12	Huh7	-	<1 µM
CC(C)(C)OC(=O)N1[C@H](CO)CC(F)(F)[C@H]1n1cnc2c(Cl)ncnc21	-	-	>10 µM
CCCOc1ccc(-c2cnc(Cn3cc4nc(-c5cccc(F)c5F)nc-4cn3)cn2)c(C(F)(F)F)c1	Huh-luc/neo-ET	genotype 1b	0.032 µM
O=C(Nc1ccc(C2SC(=Nc3cccc(F)c3)N(Cc3ccco3)C2=O)cc1)[C@H]1CCCN1C(=O)COc1ccccc1	Huh7	-	0.1–1 µM
COc1ccc(-c2cnc3nc(N)nc(N4CCN(CC(=O)N(C)c5ccccc5)CC4)c3n2)cc1OC	Huh7	HCV replicon	<0.3 µM
C=C[C@@H]1C[C@]1(NC(=O)[C@@H]1C[C@@H]2CN1C(=O)[C@H](C(C)(C)C)NC(=O)C[C@@H]1C[C@H]1CCCCCc1nc3ccc(OC)cc3nc1O2)C(=O)NS(=O)(=O)C1CC1	-	1b	0.0035 µM
CNC(=O)c1c(-c2ccc(F)cc2)oc2cc(-c3c(C)n[nH]c3C)c(OC)cc12	Huh7	-	<1 µM
COc1cc(C(=O)N2[C@@H](c3nccs3)[C@@H](c3cnccn3)C[C@@]2(CCS(C)(=O)=O)C(=O)O)ccc1C(C)(C)C	Huh7	Genotype 1A	>100 µM
CCN(c1cc2oc(-c3ccc(F)cc3)c(C(=O)NC)c2cc1OC(C)C)S(C)(=O)=O	Huh7	-	<1 µM
CONc1ncnc2c1ncn2[C@@H]1O[C@H](CO)[C@@H](O)[C@@]1(C)O	Huh7	-	<25 µM
C=C1C[C@]1(NC(=O)[C@@H]1C[C@@H](Oc2cc(-c3ccccc3)nc3cc(OC)ccc23)CN1C(=O)[C@@H](NC(=O)OC(C)(C)C)C(C)(C)C)C(=O)NS(=O)(=O)c1ccccc1F	Huh7	1b	<0.5 µM
O=C(Nc1ccc(C2SC(=Nc3ccc(N4CCOCC4)cc3)N(c3ccccn3)C2=O)cc1)[C@H]1CCCN1C(=O)OCc1ccccc1	Huh7	-	<0.1 µM
COc1ccc(-c2cnc3nc(N)nc(N4CCN(CCOc5ccccc5)CC4)c3n2)cc1OC	Huh7	HCV replicon	<0.3 µM
COc1cc(C(=O)N2[C@@H](c3nccs3)[C@@H](c3cnccn3)C[C@@]2(Cc2ccsn2)C(=O)O)ccc1C(C)(C)C	Huh7	Genotype 1A	<10 µM
COc1ccc(-c2cc(C[n+]3cc4[nH]c(-c5cccc(F)c5F)nc4cn3)on2)cc1	Huh-luc/neo-ET	genotype 1b	0.093 µM
O=C(C(=O)N1CCC[C@@H]1C(=O)Nc1ccc(C2SC(=Nc3ccc(N4CCOCC4)cc3)N(Cc3ccccn3)C2=O)cc1)c1ccccc1	Huh7	-	<0.1 µM
CCCCCC(=O)N1CCN(c2nc(N)nc3ncc(-c4ccc(OC)c(OC)c4)nc23)CC1	Huh7	HCV replicon	<0.3 µM
CC(CNc1ncnc2c1ncn2[C@@H]1O[C@H](CO)[C@@H](O)[C@@]1(C)O)c1ccccc1	Huh7	-	>100 µM
Cc1cnc(CN2C(=O)C(c3ccc(NC(=O)[C@@H](C)NC(=O)OCc4ccccc4)cc3)SC2=Nc2ccc(N3CCOCC3)cc2)cn1	Huh7	-	<0.1 µM
Fc1cccc(-c2cc3cn(Cc4ccc(-c5ccc(C(F)(F)F)cc5C(F)(F)F)nn4)ccc-3n2)c1F	-	1b	<100 µM
C=C[C@@H]1C[C@]1(NC(=O)[C@@H]1C[C@@H](Oc2cc(-c3ccccc3)nc3cc(OC)ccc23)CN1C(=O)[C@@H](NC(=O)OC(C)(C)C)C(C)(C)C)C(=O)NS(=O)(=O)c1c(Cl)cccc1Cl	Huh7	1b	<0.5 µM
CCCOc1ccc(-c2cc(C(C(=O)OCCOCCO)[n+]3cc4[nH]c(-c5cccc(F)c5F)nc4cn3)on2)c(C(F)(F)F)c1	Huh-luc/neo-ET	genotype 1b	0.00337 µM
CC(C)(C)OC(=O)N1[C@H](CO)CC(F)(F)[C@@H]1n1cc(F)c(=O)[nH]c1=O	-	-	>10 µM
C[C@]1(O)[C@H](n2ccc(N)nc2=O)C[C@@](O)(C(F)(F)F)[C@H]1O	Huh7	-	>50 µM
C[C@H](NC(=O)Cc1ccccc1)C(=O)Nc1ccc(C2SC3=Nc4ccccc4CN3C2=O)cc1	Huh7	-	0.1–1 µM
C=CC1CC1(NC(=O)[C@@H]1C[C@@H](OC(=O)Nc2cc(C)ccc2-n2cccc2)CN1C(=O)[C@@H](NC(=O)OC(C)(C)C)C(C)(C)C)C(=O)NS(=O)(=O)C1CC1	Huh7	1b	<0.1 µM
CN(C)c1ccc(CC(=O)N2CCC[C@@H]2C(=O)Nc2ccc(C3SC(=Nc4ccc(N5CCOCC5)cc4)N(Cc4ccccn4)C3=O)cc2)cc1	Huh7	-	0.1–1 µM
COc1cc(C(=O)N2[C@@H](c3nccs3)[C@@H](c3cnccn3)C[C@@]2(Cn2cccn2)C(=O)O)ccc1C(C)(C)C	Huh7	genotype 1b	<0.1 µM
COc1ccc(C(=O)N2CCC[C@@H]2C(=O)Nc2ccc(C3SC(=Nc4cccc(F)c4)N(Cc4ccco4)C3=O)cc2)cc1OC	Huh7	-	0.1–1 µM
Fc1cccc(-c2cc3ccn(Cc4ccc(-c5ccc(C(F)(F)F)cc5C(F)(F)F)nn4)cc-3n2)c1F	-	1b	<100 µM
CC(C)(C)OC(=O)N1[C@H](CO)CC(F)(F)[C@H]1n1cnc2ncnc(Cl)c21	-	-	>10 µM
CC1=CN(c2ccc([N+](=O)[O-])cc2)[C@@H](c2ccc(Cl)cc2)[C@@H](C)C1=O	Huh7	1b	22.7 µM
COc1ccc(-c2cnc3nc(N)nc(N4CCN(Cc5ccc(C)cc5)CC4)c3n2)cc1OC	Huh7	HCV replicon	0.3–1 µM
C=CC1CC1(NC(=O)[C@@H]1C[C@@H](OC(=O)Nc2cc(C(=O)OCC)ccc2N2CCCCC2)CN1C(=O)[C@@H](NC(=O)OC(C)(C)C)C(C)(C)C)C(=O)NS(=O)(=O)C1CC1	Huh7	1b	0.1–1 µM
NS(=O)(=O)c1ccc(CNc2nc(NCC(F)(F)F)c3nc(-c4ccc(F)cc4)cnc3n2)cc1	Huh7	HCV replicon	<0.3 µM
CNC(=O)c1c(-c2ccc(F)cc2)oc2cc(N(CCF)S(C)(=O)=O)c(OC)cc12	Huh7	-	<1 µM
Nc1ccn([C@@H]2CC(CO)(CO)[C@@H](O)[C@]2(O)CCO)c(=O)n1	-	1b	21.1 µM
CC(c1cc(-c2ccc(C(F)(F)F)cc2C(F)(F)F)no1)[n+]1cc2[nH]c(-c3cccc(F)c3F)nc2cn1	Huh-luc/neo-ET	genotype 1b	0.077 µM
COc1ccc(-c2cnc3nc(N)nc(N4CCN(C(=O)Oc5ccc(C)cc5)CC4)c3n2)cc1OC	Huh7	HCV replicon	<0.3 µM
CC(C)(C)OC(=O)N1[C@H](CO)CC(F)(F)[C@@H]1n1ccc(=O)[nH]c1=O	-	-	>10 µM

A second listing of 5 rows from above:

compound	cells	strain	result
CN(C)c1ccc(CC(=O)N2CCC[C@@H]2C(=O)Nc2ccc(C3SC(=Nc4ccc(N5CCOCC5)cc4)N(Cc4ccccn4)C3=O)cc2)cc1	Huh7	-	0.1–1 µM
C=CC1CC1(NC(=O)[C@@H]1C[C@@H](OC(=O)n2c3ccccc3c3ccccc32)CN1C(=O)[C@@H](NC(=O)OC(C)(C)C)C(C)(C)C)C(=O)NS(=O)(=O)C1CC1	Huh7	1b	<0.1 µM
CCCOc1ccc(-c2cnc(Cn3cc4nc(-c5cccc(F)c5F)nc-4cn3)cn2)c(C(F)(F)F)c1	Huh-luc/neo-ET	genotype 1b	0.032 µM
O=C(Nc1ccc(C2SC(=Nc3cccc(Oc4ccccc4)c3)N(Cc3ccco3)C2=O)cc1)[C@H]1CCCN1C(=O)OCc1ccccc1	Huh7	-	0.1–1 µM
C[C@H](NC(=O)Cc1ccccc1)C(=O)Nc1ccc(C2SC3=Nc4ccccc4CN3C2=O)cc1	Huh7	-	0.1–1 µM

Two numbers with a dash give a range or band. Rows are shuffled and stem from different studies. An empty or dashed field is not shown.